Results reported in ChEMBL document CHEMBL1681701, “Huprines as a new family of dual acting trypanocidal-antiplasmodial agents” (Bioorg Med Chem, 2011).

How the values were obtained:
Trypanosoma brucei = experiment: Trypanocidal activity against bloodstream form of Trypanosoma brucei 427 after 48 hrs
[1] = Selectivity index, ratio of IC50 for rat L6 cells to IC50 for chloroquine-resistant Plasmodium falciparum K1
[2] = Selectivity index, ratio of IC50 for rat L6 cells to IC 50 for Trypanosoma brucei 427
Plasmodium falciparum = experiment: Antiplasmodial activity against chloroquine-resistant Plasmodium falciparum K1; assay type: functional, organism-based
How it was run: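 K1 parasites grown in human A+ erythrocytes in RPMI 1640 with A+ serum and D-glucose; predominantly early ring-stage cultures used. Twofold serial dilutions run in duplicate from DMSO stocks (final DMSO ≤0.5%), at 2.5% haematocrit and 1% parasitaemia. Incubation was 48 h at 37 °C under 93% N2/3% O2/4% CO2. Growth was read as lactate dehydrogenase activity (APAD/NBT, 550 nm), and IC50 was taken by linear regression.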

SMILES | IC50 (Trypanosoma brucei) | Selectivity Index [1] | Selectivity Index [2] | IC50 (Plasmodium falciparum)
CCC1=CC2Cc3nc4cccc(F)c4c(N)c3C(C1)C2 (configuration not stated) | 5.96 µM |  |  | 
CCC1=CC2Cc3nc4ccc(Cl)cc4c(N)c3C(C1)C2 (configuration not stated) | 2.15 µM |  |  | 
CCCCC1=CC2Cc3nc4ccccc4c(N)c3C(C1)C2.Cl (configuration not stated) |  | 1.12 | 9.6 | 
CCC1=CC2Cc3nc4cc(F)ccc4c(N)c3C(C1)C2 (configuration not stated) | 4.16 µM |  |  | 
CCCCC1=CC2Cc3nc4ccccc4c(N)c3C(C1)C2 (configuration not stated) | 0.7 µM |  |  | 5.99 µM
